A mixed list of measured activities; the numbers were collected in NIAID ChemDB.

Shared fields: whole-cell or culture tests; agent: HIV-1; method: p24; endpoint: fold resistance

Blank or dashed fields: not listed here. Rows are shuffled and stem from different studies. Fold resistance: result on the changed form divided by that on wild type.

structure	cell line	strain	changes	value
Nc1nc(NC2CC2)c2ncn([C@H]3C=C[C@@H](CO)C3)c2n1	MT-2	-	RT-T69G	7.2
Cc1cn([C@H]2C[C@H](N=[N+]=[N-])[C@@H](CO)O2)c(=O)[nH]c1=O	MT-4	HXB2-D (RT K65R M184V)	RT-K65R M184V	1.08
Nc1ncnc2c1ncn2CCOCP(=O)(O)O	MT-2	L74V(RT-L74V)	RT-L74V	1.3
CCc1cc(NCc2nc3c(Cl)ccc(Cl)c3o2)c(=O)[nH]c1C	MT-4	NL4-3	RT-V106A	1
Nc1ccn([C@@H]2CO[C@H](CO)S2)c(=O)n1	C8166	RF	RT-K65R	1.27
Cc1cn([C@H]2C[C@H](N=[N+]=[N-])[C@@H](CO)O2)c(=O)[nH]c1=O	PBMC	Recombinant	RT-V75I	0
Nc1ccn([C@H]2CC[C@@H](CO)O2)c(=O)n1	MT-2	RT Δ.67 T69G K103N	1 (Δ.67+T69G+K103N)	2.6
C[C@H](Cn1cnc2c(N)ncnc21)OCP(=O)(O)O	MT-2	74V (ddI- ddC-resistant RT L74V)	RT-L74V	0.941
Nc1ccn([C@H]2CC[C@@H](CO)O2)c(=O)n1	MT-4	HXB2-D184 (RT-M184V)	RT-M184V	4.4
CC(C)(C)NC(=O)[C@@H]1C[C@@H]2CCCC[C@@H]2CN1C[C@@H](O)[C@H](Cc1ccccc1)NC(=O)[C@H](CC(N)=O)NC(=O)c1ccc2ccccc2n1	PBMC	Clinical isolate	PR-L10I I15V E35D N37E K45R I54V L63P A71V V82T L90M I93L C95F	3.6
COc1ccc2c(c1)N(C(=O)OC(C)C)[C@@H](CSC)C(=S)N2	H9	B9 (RT L100I V106A G190A)	RT-L100I V106A G190A	>1430
CC(C)CN(C[C@@H](O)[C@H](Cc1ccccc1)NC(=O)[C@H](CC(N)=O)NC(=O)c1ccc2ccccc2n1)C(=O)NC(C)(C)C	MT-4	NL4-3	PR-L10R M46I L63P V82T I84V	7.5
O=c1[nH]cnc2c1ncn2[C@H]1CC[C@@H](CO)O1	MT-2	RT P119S L214F	RT-P119S L214F	1.1
CC(C)(C)NC(=O)[C@@H]1C[C@@H]2CCCC[C@@H]2CN1C[C@@H](O)[C@H](Cc1ccccc1)NC(=O)[C@H](CC(N)=O)NC(=O)c1ccc2ccccc2n1	MT-4	NL4-3	PR-L10R L63P V82T I84V	4
CC(C)c1nc(CN(C)C(=O)N[C@H](C(=O)N[C@@H](Cc2ccccc2)C[C@H](O)[C@H](Cc2ccccc2)NC(=O)OCc2cncs2)C(C)C)cs1	PBMC	Clinical isolate	PR-L10I K14R R41K M46L I54V L63P A71V V82A L90M I93L	>23
CC(C)c1nc(CN(C)C(=O)N[C@H](C(=O)N[C@@H](Cc2ccccc2)C[C@H](O)[C@H](Cc2ccccc2)NC(=O)OCc2cncs2)C(C)C)cs1	MT-4	NL4-3	PR-D30N M46I A71V	0.8
Nc1ccn([C@H]2CC[C@@H](CO)O2)c(=O)n1	MT-2	M184V(RT-M184V)	RT-M184V	3.7
O=c1[nH]cnc2c1ncn2[C@H]1CC[C@@H](CO)O1	C8166	HXB2	RT-M41L L74V V106A T215Y	3.61
Cc1c(O)cccc1C(=O)N[C@@H](CSc1ccccc1)[C@H](O)CN1C[C@H]2CCCC[C@H]2C[C@H]1C(=O)NC(C)(C)C	PBMC	Clinical isolate	PR-L10R N37D M46I I62V L63P A71V G73S V77I V82T L90M I93L	>43.5
O=c1[nH]cnc2c1ncn2[C@H]1CC[C@@H](CO)O1	PBMC	Recombinant	RT-Q151M	0.65
Cc1cn([C@H]2C[C@H](N=[N+]=[N-])[C@@H](CO)O2)c(=O)[nH]c1=O	PBMC	XM-ABC-resistant	RT-K65R L74V M184V Y115F	0.3
COc1ccc(S(=O)(=O)N(CC(C)C)C[C@@H](O)[C@H](Cc2ccccc2)NC(=O)O[C@H]2CO[C@H]3OCC[C@H]32)cc1	PBMC	Clinical isolate	PR-L10R N37D M46I I62V L63P A71V G73S V77I V82T L90M I93L	1
CC(C)Nc1cccnc1N1CCN(C(=O)c2cc3cc(NS(C)(=O)=O)ccc3[nH]2)CC1	H9	A1(RT-G190E)	RT-G190E	>55.6
Nc1ncnc2c1ncn2[C@@H]1O[C@H](CO)C[C@@H]1F	MT-2	RT P119S L214F	RT-P119S L214F	2.8
O=c1[nH]cnc2c1ncn2[C@H]1CC[C@@H](CO)O1	PBMC	XM-ABC-resistant	RT-K65R L74V M184V Y115F	1.4

For reference, 2 entries again:

{"structure": "Cc1c(O)cccc1C(=O)N[C@@H](CSc1ccccc1)[C@H](O)CN1C[C@H]2CCCC[C@H]2C[C@H]1C(=O)NC(C)(C)C", "cell line": "PBMC", "strain": "Clinical isolate", "changes": "PR-L10R N37D M46I I62V L63P A71V G73S V77I V82T L90M I93L", "value": ">43.5"}
{"structure": "Nc1nc(NC2CC2)c2ncn([C@H]3C=C[C@@H](CO)C3)c2n1", "cell line": "MT-2", "changes": "RT-T69G", "value": "7.2"}